Laboratory results taken from article PMC8071314, “Computational Design and Development of Benzodioxane-Benzamides as Potent Inhibitors of FtsZ by Exploring the Hydrophobic Subpocket” (Antibiotics, 2021).

Tested on: MRC-5 cells
Assay: MTT cytotoxicity assay on MRC-5 cells
Format: cell-based, human
Details: TD90 and MBC ratio
Protocol: We first determined the minimal inhibitory concentration (MIC), i.e., the lowest compound dose (µM) arresting bacterial growth, and the minimal bactericidal concentration (MBC), i.e., the minimal dose (µM) of the compound required for an irreversible block, even after drug removal. Secondly, the derivatives having the most promising activities vs. MRSA were also tested on human MRC-5 cells, calculating their percentages of cytotoxicity by using the MTT assay. Cells were first incubated with each compound for 24 h, then the derivative was removed, and the cells were overlaid with MTT for an additional 3 h. After that time, DMSO replaced the MTT solution, and after 10 min the absorbance was measured at 570 nm. The percentage of cytotoxicity was defined by the formula [100 − (sample OD/untreated cells OD) × 100]. Table 2 reports TD90, defined as the compound concentration (µM) that reduced viability of MRC-5 cells by 90%. Moreover, we reported the therapeutic index (TI), as TD90 and MBC ratio.
Compounds showing an antibacterial activity at a concentration lower than 10 μg/mL were serially diluted in DMEM and tested for cytotoxicity on MRC-5 cells by the MTT assay (Sigma, St Louis, MO, USA). Protocol was the same previously reported.

SMILES	TI (therapeutic index)
CSc1nc(-c2ccc3c(c2)OC(CCOc2ccc(F)c(C(N)=O)c2F)CO3)no1 (stereo not drawn) [Compound 3, 3-[2-(7-(5-methylthio-1,2,4-oxadiazol-3-yl)-1,4-benzodioxan-2-yl)ethyloxy]-2,6-difluorobenzamide]	3034
NC(=O)c1c(F)ccc(OCC2COc3cc4c(cc3O2)CCCC4)c1F (stereo not drawn) [Compound 7]	15.0
CCc1nc(-c2ccc3c(c2)OC(COc2ccc(F)c(C(N)=O)c2F)CO3)no1 (stereo not drawn) [VII, reference compound]	>320
NC(=O)c1c(F)ccc(OCC2COc3cc4ccccc4cc3O2)c1F (stereo not drawn) [Compound 4, 3-[(2,3-dihydronaphtho[2,3-b][1,4]dioxin-2-yl)methoxy]-2,6-difluorobenzamide]	>320
NC(=O)c1c(F)ccc(OCCCOc2ccc3ccccc3c2)c1F [Compound 6]	>160
NC(=O)c1c(F)ccc(OCCC2COc3cc4ccccc4cc3O2)c1F (stereo not drawn) [Compound 5, 3-[2-(2,3-dihydronaphtho[2,3-b][1,4]dioxin-2-yl)ethoxy]-2,6-difluorobenzamide]	360
Cc1nc(-c2ccc3c(c2)OC(CCOc2ccc(F)c(C(N)=O)c2F)CO3)no1 (stereo not drawn) [Compound 1, 3-[2-(7-(5-methyl-1,2,4-oxadiazol-3-yl)-1,4-benzodioxan-2-yl)ethyloxy]-2,6-difluorobenzamide]	>1591
CCc1nc(-c2ccc3c(c2)OC(CCOc2ccc(F)c(C(N)=O)c2F)CO3)no1 (stereo not drawn) [Compound 2]	3090
Cc1nc(-c2ccc3c(c2)OC(COc2ccc(F)c(C(N)=O)c2F)CO3)no1 (stereo not drawn) [VI, reference compound]	>320
CSc1nc(-c2ccc3c(c2)OC(COc2ccc(F)c(C(N)=O)c2F)CO3)no1 (stereo not drawn) [V, reference compound]	1231
NC(=O)c1c(F)ccc(OCCC2COc3cc4c(cc3O2)CCCC4)c1F (stereo not drawn) [Compound 8, 3-[2-(2,3,6,7,8,9-hexahydronaphtho[2,3-b][1,4]dioxin-2-yl)ethoxy]-2,6-difluorobenzamide]	8200
NC(=O)c1c(F)ccc(OCCC2COc3ccccc3O2)c1F (stereo not drawn) [II, reference compound]	15.2
